{"source": "PubChem BioAssay AID651724", "about": "(National Center for Advancing Translational Sciences (NCATS), 2012)", "note": "Only a part is listed here, and it is no random draw. Activity calls are given as the source filed them. Cut-off read from the data, not from the text of the source: active = activity change below about -65%; inconclusive = mostly about -30% to -63%; inactive = weaker than that."}
{"test_system": "CtBP / adenovirus E1A interaction (AlphaScreen)", "experiment": "qHTS Assay for Inhibitors of the CtBP/E1A Interaction; note: % is set by controls: 0 for no effect and ±100 for the full control effect", "conditions": "AlphaScreen GST-E1A/His-CtBP binding, 1536-well; active compounds read low", "source_text": "Carboxyl-terminal binding protein (CtBP) is a co-repressor for many transcription factors. […] Our studies have shown that CtBP is overexpressed in multiple human cancers, including lung, breast, and head and neck cancers. In particular, it is over-expressed in 50% of primary lung cancer and 90% of metastatic lesions. CtBP suppresses epithelial-specific genes as well as genes critical for apoptosis, providing the underlying molecular mechanism for its role in tumorigenesis. […] Based on the above data, we hypothesize that 1) CtBP suppresses the pro-apoptotic and epithelial genes, therefore overexpressed CtBP in human cancer cells increases EMT and cancer survival; 2) decreasing CtBP's function represents a targeted therapy for lung cancer and potentially multiple cancer types. As a co-repressor, CtBP binds to E1A and other transcription factors through a conserved peptide motif to carry out its action. Inhibiting this interaction using small molecules can potentially serve as effective cancer therapeutics.\nTo this end, we have developed a homogenous AlphaScreen assay targeting the CtBP/E1A interaction. We performed a large scale HTS of the Molecular Libraries Small Molecule Repository (MLSMR) to identify inhibitors of the CtBP/E1A interaction as potential anti-cancer therapeutics. Compounds identified can also be used as chemical probes to better understand the biological functions of CtBP.\nNIH Chemical Genomics Center [NCGC]\nNIH Molecular Libraries Probe Centers Network [MLPCN]\nAssay Submitter (PI): Rui Zhao, University of Colorado Denver\nThe first step of the 5uL AlphaScreen assay is to dispense assay buffer (50 mM Tris, pH 8.0, 300 mM NaCl, 0.05% BSA, 0.02% Tween 20, 1 mM TCEP) into a Greiner 1536 white solid bottom microtiter plate (789175-F). Five microliters is added to Column 1, 4 uL is added to Column 2 and 3 uL is added to Columns 3 through 48. A 5X protein solution (125 nM GST-E1A protein + 125 nM His-tagged CtBP protein) is mixed and 1 uL is dispensed to Columns 3-48. Using a 1536 pintool, 23 nL of compound is transferred to the assay plate and the plate is incubated with a lid at 37 deg C in the dark for two hours. A solution of 5X AlphaScreen beads is mixed (50 ug/mL Glutathione linked donor beads + Nickel chelated acceptor beads) and 1 uL is dispensed to Columns 2-48. The assay plate is incubated for one hour, with a lid, at 37 deg C in the dark. The plate is read using a Perkin Elmer Envision using an AlphaScreen protocol."}
{"molecule": "CC1(CBr)Cn2c(nc3ccccc3c2=O)S1", "note": "(centres undefined)", "activity change": "inactive: 11%"}
{"molecule": "Cc1nc2ccc3ccccc3c2s1.O=[N+]([O-])c1cc([N+](=O)[O-])c(O)c([N+](=O)[O-])c1", "activity change": "inactive: 2.04%"}
{"molecule": "CC(C)/C=N\\N=C(\\N)N[N+](=O)[O-]", "activity change": "inactive: -9.3%"}
{"molecule": "CN(C(=O)Cc1ccc(Cl)c(Cl)c1)[C@@H]1CCCC[C@H]1N1CCCC1", "activity change": "inactive: -17.5%"}
{"molecule": "COc1ccccc1CNC(=O)COC(=O)C(O)(c1ccccc1)c1ccccc1", "activity change": "inactive: -1.61%"}
{"molecule": "CN(Cc1cccnc1)C(=O)COc1ccc(Cl)c(Cl)c1.O=[N+]([O-])c1cc([N+](=O)[O-])c(O)c([N+](=O)[O-])c1", "activity change": "inactive: 0.894%"}
{"molecule": "O=P1(N(CCCl)CCCl)NCCC(C(F)(F)F)O1", "note": "(centres undefined)", "activity change": "inactive: 0.3%"}
{"molecule": "Clc1n[nH]nc1-c1nn[nH][15n]1", "activity change": "inactive: -2.1%"}
{"molecule": "CN(CCCl)Cc1cc(Cl)c(NC2=NCCN2)c(Cl)c1", "activity change": "inactive: -15%"}
{"molecule": "CCOP(=O)(NC(=NC(C)c1ccccc1)NC(C)c1ccccc1)OCC", "note": "(centres undefined)", "activity change": "inactive: 4.93%"}
{"molecule": "Nc1ccc(CCCCOc2ccccc2)cc1.O=[N+]([O-])c1cc([N+](=O)[O-])c(O)c([N+](=O)[O-])c1", "activity change": "inactive: -17.2%"}
{"molecule": "O=[N+]([O-])c1cc([N+](=O)[O-])c(-n2nnc3ccccc32)c([N+](=O)[O-])c1", "activity change": "inactive: -22%"}
{"molecule": "O=C(O)C(O)c1ccc(N(CCCl)CCCl)cc1.c1ccncc1", "note": "(centres undefined)", "activity change": "inactive: -16.5%"}
{"molecule": "O=P1(Nc2ccccn2)COc2ccccc2OC1", "activity change": "inactive: -7.67%"}
{"molecule": "CCC1=CC2Cc3nc4ccc(Cl)cc4c(N)c3C(C1)C2", "note": "(centres undefined)", "activity change": "inactive: -5.01%"}
{"molecule": "O=P1(Nc2ccc(Br)cn2)COc2ccccc2OC1", "activity change": "inactive: -0.529%"}
{"molecule": "Cc1ccc(OCC(=O)OC2CN3CCC2CC3)cc1", "note": "(centres undefined)", "activity change": "inactive: 1.32%"}
{"molecule": "CP(=O)(Nc1ccc(SC(F)(F)F)cc1)Oc1ccccc1", "note": "(centres undefined)", "activity change": "inactive: -0.349%"}
{"molecule": "CCCOc1ccc(NP(C)(=O)Oc2ccc(Cl)cc2)cc1", "note": "(centres undefined)", "activity change": "inactive: -2.4%"}
{"molecule": "O=P1(Nc2ncccn2)COc2ccccc2OC1", "activity change": "inactive: 0.411%"}
{"molecule": "COc1ccccc1OP(C)(=O)Nc1c(C)cccc1C", "note": "(centres undefined)", "activity change": "inactive: 4.58%"}
{"molecule": "CN1CCCCC1COC(=O)C1(O)c2ccccc2CCc2ccccc21", "note": "(centres undefined)", "activity change": "inactive: 4.93%"}
{"molecule": "CCCC1OP(=O)(Nc2ccccc2)OCC1CC", "note": "(centres undefined)", "activity change": "inactive: 6.24%"}
{"molecule": "O=C(/C=C/c1ccccc1)OC1CN2CCC1CC2", "note": "(centres undefined)", "activity change": "inactive: -1.74%"}
{"molecule": "CN(C)C1(CNC(=O)c2ccc(S(C)(=O)=O)cc2)CCCCC1", "activity change": "inactive: -2.59%"}
{"molecule": "COc1cc(C2NCCC3(OCCO3)C2(C)C)cc(OC)c1OC.O=[N+]([O-])c1cc([N+](=O)[O-])c(O)c([N+](=O)[O-])c1", "note": "(centres undefined)", "activity change": "inactive: 12.7%"}
{"molecule": "CC1CCC(C(C)C)C(OP(=O)(Nc2ccccn2)c2ccccc2)C1", "note": "(centres undefined)", "activity change": "inactive: -2.18%"}
{"molecule": "Cc1nn(-c2ccccc2)c2c1P(=O)(N1CCOCC1)N(C)C(c1ccccc1)=N2", "note": "(centres undefined)", "activity change": "inactive: 3.3%"}
{"molecule": "CN(C(=O)Cc1ccc(Cl)c(Cl)c1)[C@H]1CC[C@@]2(CCCO2)C[C@@H]1N1CCCC1", "activity change": "inactive: 1.87%"}
{"molecule": "CC1=NCCc2c1[nH]c1ccccc21.O=[N+]([O-])c1cc([N+](=O)[O-])c(O)c([N+](=O)[O-])c1", "activity change": "inactive: -21.9%"}
{"molecule": "CN(C)C(=O)c1cc([N+](=O)[O-])cc2c1-c1c(cc([N+](=O)[O-])cc1[N+](=O)[O-])C2=O", "activity change": "inactive: -2.21%"}
{"molecule": "O=[N+]([O-])c1ccc2c(c1)nnn2O", "activity change": "inactive: -2.3%"}
{"molecule": "CN(C(=O)Cc1ccccc1)[C@@H]1CC[C@]2(CCCO2)C[C@H]1N1CCCC1", "activity change": "inactive: 4.63%"}
{"molecule": "CCOP1(=S)c2c(C)nn(CCC#N)c2N=C(c2ccc(F)cc2)N1C", "note": "(centres undefined)", "activity change": "inactive: -8.02%"}
{"molecule": "N#CCCN(C(=O)COC(=O)C(O)(c1ccccc1)c1ccccc1)c1ccc(F)cc1", "activity change": "inactive: -4.31%"}
{"molecule": "NC(=O)Nc1ccc([As](=O)(O)O)cc1", "activity change": "inactive: 7.83%"}
{"molecule": "Nc1ccccc1[As](=O)(O)c1ccccc1", "activity change": "inactive: 13.2%"}
{"molecule": "O=C(O)COc1ccc([As](=O)(O)O)cc1[N+](=O)[O-]", "activity change": "inactive: 0%"}
{"molecule": "CS(=O)(=O)c1cc([N+](=O)[O-])c2no[n+]([O-])c2c1", "activity change": "inactive: 0.245%"}
{"molecule": "O=P(Nc1nccs1)(c1ccccc1)c1nc2ccccc2s1", "note": "(centres undefined)", "activity change": "inactive: 2%"}
{"molecule": "CCOP1(=S)c2c(C)nn(CCC#N)c2N=C(c2ccccc2F)N1C", "note": "(centres undefined)", "activity change": "inactive: -9.38%"}
{"molecule": "CCOP(=O)(Nc1cccc2ccccc12)OCC", "activity change": "inactive: 1.27%"}
{"molecule": "Cc1ccc(C)c(NP(C)(=O)Oc2ccccc2)c1", "note": "(centres undefined)", "activity change": "inactive: 0.182%"}
{"molecule": "CP(=O)(Nc1cccc(Br)c1)Oc1ccccc1", "note": "(centres undefined)", "activity change": "inactive: 9.98%"}
{"molecule": "Cc1cc(C)cc(OP(C)(=O)Nc2ccccn2)c1", "note": "(centres undefined)", "activity change": "inactive: 9.86%"}
{"molecule": "CCOC(=O)c1ccc(NP(C)(=O)Oc2cc(C)cc(C)c2)cc1", "note": "(centres undefined)", "activity change": "inactive: -12%"}
{"molecule": "Cc1cc(C)cc(OP(C)(=O)Nc2ccc(C)cc2C)c1", "note": "(centres undefined)", "activity change": "inactive: -13.5%"}
{"molecule": "O=[As](O)(c1cccc(O)c1)c1cccc(O)c1", "activity change": "inactive: 7.82%"}
{"molecule": "Cc1cccc(OCC(=O)OC2CN3CCC2CC3)c1", "note": "(centres undefined)", "activity change": "inactive: 5.54%"}
{"molecule": "COc1ccccc1OP(C)(=O)Nc1cccc(Br)c1", "note": "(centres undefined)", "activity change": "inactive: 10.5%"}
{"molecule": "CS(=O)(=O)c1ccc(Cl)c(NC(=O)COC(=O)C(O)(c2ccccc2)c2ccccc2)c1", "activity change": "inactive: -1.65%"}
{"molecule": "O=[As](O)(O)c1cccnc1", "activity change": "inactive: 3.2%"}
{"molecule": "O=C(OC1CN2CCC1CC2)c1ccc(Cl)cc1", "note": "(centres undefined)", "activity change": "inactive: -8.32%"}
{"molecule": "COc1ccccc1-c1ccccn1.O=[N+]([O-])c1cc([N+](=O)[O-])c(O)c([N+](=O)[O-])c1", "activity change": "inactive: 4.22%"}
{"molecule": "COc1ccc(N/C(=N/P(=O)(N2CCOCC2)N2CCOCC2)N2CCOCC2)cc1", "activity change": "inactive: 10.1%"}
{"molecule": "O=[N+]([O-])c1cc(Oc2ccc([N+](=O)[O-])cc2C(F)(F)F)cc([N+](=O)[O-])c1", "activity change": "inactive: 6.71%"}
{"molecule": "COc1cc(I)ccc1[As](=O)(O)O", "activity change": "inactive: -1.82%"}
{"molecule": "COc1ccc2nc(NP(=O)(c3ccccc3)c3ccccc3)sc2c1", "activity change": "inactive: -6.12%"}
{"molecule": "O=P1(N(CCCl)CCCl)Nc2ccccc2N1", "activity change": "inactive: -8.3%"}
